Pooled drug test results. Numbers come from NIAID ChemDB, via PubChem.

Shared fields: cytotoxicity tests; cells: MT-4; read by: MTT; read-out: CC50

Neighbouring rows are from separate reports. CCn: concentration that lowers growth or viability of the cells by n%.

SMILES,value
CC(=O)OC1[C@]2(C)[C@H]3CC(C)(C)C(=O)[C@@H]3C[C@@]1(OC(C)=O)[C@H](OC(=O)CO)[C@H]1[C@@H](OC(=O)c3ccccc3)[C@@H](C)C[C@]1(O)[C@@H]2OC(C)=O,>100 µg/mL
COc1c(C(=O)/C=C(/C)Nc2ccccc2)c(O)c(S(=O)(=O)OC2CCCC2)c2occc12,450 µM
Cc1cc(C#N)cc(C)c1Oc1nc(NC2CCN(S(=O)(=O)c3ccc(-c4ccccc4)cc3)CC2)nc2ccsc12,>209.8 µM
CC(=O)O[C@@H]1[C@H](C)[C@H](OC(=O)c2ccccc2)[C@@H]2[C@@H](OC(C)=O)[C@]3(C)C[C@@]4(OC(C)=O)C(=O)C(C)(C)C[C@H]4[C@]3(C)[C@@H](OC(C)=O)[C@]21O,70 µg/mL
Cc1cc(C)cc(S(=O)(=O)c2c(C(=O)NCC(=O)NN)[nH]c3ccc(Cl)cc23)c1,≥200 µM
COC(=O)[C@H](C)NP(=O)(OC[C@H]1C=C[C@@H](n2cc(CC(=O)NCCCCCCNC(=O)C(F)(F)F)c(=O)[nH]c2=O)O1)Oc1ccccc1,>1 µM
O=C1/C(=C\c2ccc(SC3=CC=C3)cc2)N(CCc2cccs2)C(=S)N1CCc1cccs1,>102 µg/mL
Cc1cc(C)cc(S(=O)(=O)c2c(C(=O)/C=C/C(N)=O)[nH]c3ccc(Cl)cc23)c1,>200 µM
C=CCOc1cccc(Cc2nc(SCC(C)C)nc(OCC(C)C)c2CC)c1,>100 µM
COc1cccc(N2CCN(c3cc4c(cc3N)c(=O)c(C(=O)O)cn4C3CC3)CC2)c1,4.21 µM
COc1cc2c(c(OC)c1OC)-c1c(cc3c(c1OC)OCO3)[C@H](OC(=O)c1ccccc1)[C@@](C)(O)[C@@H](C)C2,79.43 µg/mL
O=C1C=C[C@H](n2ccc(=O)n(C(=O)c3ccccc3)c2=O)CC1,10.1 µg/mL
CNc1cc2c(=O)c(C(=O)O)cn(C)c2cc1N1CCN(c2ccccn2)CC1,20.5 µM
C=CS(=O)(=O)N1CCC(NS(=O)(=O)c2c(C(N)=O)[nH]c3ccc(Br)cc23)C1,22 µM
COc1ccc([C@H]2C[C@H]2CSc2nc([C@H](C)c3c(F)cccc3F)c(C)c(=O)[nH]2)cc1,14.64 µM
C/C=C(\C)C(=O)O[C@H]1[C@H](OC(=O)CCC)[C@@]23C(CC1(C)C)[C@]1(CCC4[C@@]5(C)CC[C@H](O[C@@H]6O[C@H](CO)[C@@H](O)[C@H](O[C@@H]7O[C@H](CO)[C@H](O)[C@H](O)[C@H]7O[C@@H]7O[C@@H](C)[C@H](O)[C@@H](O)[C@H]7O)[C@H]6O[C@@H]6O[C@H](CO)[C@H](O)[C@H](O)[C@H]6O)C(C)(C)C5CC[C@@]4(C)[C@]1(C)C[C@H]2OC(C)=O)O[C@@H]3O,<150 µg/mL
COc1c(C(=O)/C=C(/C)Nc2ccc(Cl)cc2)c(O)c(S(=O)(=O)OC2CCCCC2)c2occc12,480 µM
CCOCn1c(C(=O)C2=CCCCC2)c(CC)c(=O)[nH]c1=O,>100 µM
NNC(=O)c1cccn1S(=O)(=O)c1cc(Cl)ccc1N,>200 µM
COc1cc(Cn2c(Oc3cc(C)cc(C)c3)c(C(C)C)c(=O)[nH]c2=O)cc(OC)c1,>100 µg/mL
S=C(NCc1ccco1)Nc1cccc(Cl)c1,60 µM
COc1ccc(NC2=NS(=O)(=O)NC(Cc3ccc4ccccc4c3)=C2)cc1,165 µM
COc1ccc(C2CC2CSc2nc(C(C)c3c(F)cccc3F)c(C)c(=O)[nH]2)cc1,37.3 µM
Cc1cc(C#N)cc(C)c1Oc1nc(NC2CCN(S(=O)(=O)c3ccc(N)cc3)CC2)nc2ccsc12,>233.7 µM
COC(=O)[C@H](C)NP(=O)(OC[C@@H]1C=C[C@H](n2cc(CC(=O)NCCCCCCCCCCCCNC(=O)C(F)(F)F)c(=O)[nH]c2=O)O1)Oc1ccccc1,>10 µM
COc1cc2c(c(O)c1OC)-c1c(cc3c(c1O)OCO3)C[C@H](C)[C@H](C)C2,87.1 µg/mL
CCOC(=O)c1[nH]c2ccccc2c1Cc1ccc(OC)cc1,>80 µM
COC(=O)[C@H](C)NP(=O)(OC[C@@H]1C=C[C@H](n2cc(CC(=O)NCCCCCCNC(=O)C(F)(F)F)c(=O)[nH]c2=O)O1)Oc1ccccc1,>10 µM
Cc1cn([C@H]2C[C@H](N=[N+]=[N-])[C@@H](COP(=O)(Nc3cc(C(=O)Nc4cc(C(=O)Nc5cc(C(=O)Nc6cc(C(=O)NCCC(=N)N)n(C)c6)n(C)c5)n(C)c4)n(C)c3)OC3CCCCC3)O2)c(=O)[nH]c1=O,221 µM
C/C=C(\C)C(=O)O[C@H]1[C@H](OC(C)=O)[C@@]23C(CC1(C)C)[C@]1(CCC4[C@@]5(C)CC[C@H](O[C@@H]6O[C@H](CO)[C@@H](O)[C@H](O[C@@H]7O[C@H](CO)[C@H](O)[C@H](O)[C@H]7O[C@@H]7O[C@@H](C)[C@H](O)[C@@H](O)[C@H]7O)[C@H]6O[C@@H]6O[C@H](CO)[C@H](O)[C@H](O)[C@H]6O)C(C)(C)C5CC[C@@]4(C)[C@]1(C)C[C@H]2O)O[C@@H]3O,<15 µg/mL
CCc1c(Oc2cc(C)cc(C)c2)n(Cc2cc(Cl)cc(Cl)c2)c(=O)[nH]c1=O,>100 µg/mL
Cc1cn([C@H]2C[C@H](N=[N+]=[N-])[C@@H](COP(=O)(Nc3cc(C(=O)Nc4cc(C(=O)NCCC(=N)N)n(C)c4)n(C)c3)OC3CCCCC3)O2)c(=O)[nH]c1=O,166 µM
CCc1c(Oc2cc(C)cc(C)c2)n(Cc2cccc(C#N)c2)c(=O)[nH]c1=O,>100 µg/mL
C=CCOc1cccc(Cc2c(CC)c(=O)[nH]c(=O)n2COCC)c1,65 µM
CC(=O)O[C@@H]1[C@H]2[C@@H](OC(=O)c3ccccc3)[C@@H](C)C[C@]2(O)[C@H](OC(C)=O)[C@@]2(C)[C@@H]3CC(C)(C)C(=O)[C@]3(OC(C)=O)C[C@@]12C,49 µg/mL
Cc1cc(C)c(NC2=NS(=O)(=O)NC(Cc3ccc4ccccc4c3)=C2)c(C)c1,96 µM
S=C(NCc1ccco1)Nc1ccc(I)cc1,36.5 µM
CC(=O)Nc1ccc(S(=O)(=O)Nc2ccc(Nc3nc(Oc4c(C)cc(C#N)cc4C)c4sccc4n3)cc2)cc1,12.66 µM
Cc1cn([C@H]2C[C@H](N=[N+]=[N-])[C@@H](COP(=O)(Nc3cc(C(=O)Nc4cc(C(=O)Nc5cc(C(=O)NCCC(=N)N)n(C)c5)n(C)c4)n(C)c3)OC3CCCCC3)O2)c(=O)[nH]c1=O,42 µM
Cc1ccnc2c1NC(=O)c1cccnc1N2C1CC1,>15 µM
COc1ccc(C(Cl)c2ccnc(Nc3ccc(C#N)cc3)n2)cc1,33.6 µM
O=C1C=CN([C@H]2C=C[C@H](O)CC2)C(=O)C1C(=O)c1ccccc1,>25 µg/mL
Nc1cc2c(=O)c(C(=O)O)cn(N)c2cc1N1CCN(c2ccccn2)CC1,36.46 µM
CCc1c(Oc2cc(C)cc(C)c2)n(Cc2cc(F)ccc2F)c(=O)[nH]c1=O,>100 µg/mL
O=c1ccn([C@@H]2C=C[C@H](O)CC2)c(=O)[nH]1,>25 µg/mL
COc1c2ccoc2c(S(=O)(=O)OC2CCCCC2)c2oc(C)cc(=O)c12,610 µM
Cc1ccc(NC(=S)NC2CCN(Cc3ccccc3)CC2)cc1Cl,11.6 µM
O=C(c1ccccc1)n1c(=O)ccn([C@@H]2C=CC3(CC2)O[C@H](c2ccccc2)[C@@H](c2ccccc2)O3)c1=O,>25 µg/mL
C=C1[C@H](OC(C)=O)[C@H]2[C@@H](OC(C)=O)[C@](C)(OC(C)=O)C[C@]2(OC(C)=O)C(=O)[C@@H](C)/C=C/C(C)(C)C(=O)[C@@H](OC(C)CCC)[C@H]1OC(C)=O,40 µg/mL
Cc1cn([C@H]2C[C@H](N=[N+]=[N-])[C@@H](COP(=O)(Nc3cc(C(=O)Nc4cc(C(=O)Nc5cc(C(=O)NCCC(=N)N)n(C)c5)n(C)c4)n(C)c3)OC(C)C)O2)c(=O)[nH]c1=O,53 µM
Cc1cc(C)cc(C(=O)c2c(C(C)C)c(=O)[nH]c(=O)n2Cc2ccccc2C#N)c1,>100 µg/mL
Cc1cc(C#N)cc(C)c1Oc1nc(Nc2ccc(NS(=O)(=O)c3ccccc3)cc2)nc2ccsc12,19.65 µM
Cc1cn(C2C[C@H](N=[N+]=[N-])[C@@H](COP(=O)(Nc3cc(C(=O)Nc4cc(C(=O)Nc5cc(C(=O)NCCC#N)n(C)c5)n(C)c4)n(C)c3)OC(C)C)O2)c(=O)[nH]c1=O,82 µM
COc1ccc([C@H]2C[C@H]2CSc2nc([C@@H](C)c3c(F)cccc3F)c(C)c(=O)[nH]2)cc1,47.17 µM
C=C1C(=O)O[C@H]2C[C@H](C)[C@@H]3CC[C@@](C)(O)[C@@H]3C[C@H]12,0.5 µg/mL
CN(C)c1cc2c(=O)c(C(=O)O)cn(C)c2cc1N1CCN(c2ccccn2)CC1,19.48 µM
O=C1/C(=C\c2ccccc2[N+](=O)[O-])N(CCc2cccs2)C(=S)N1CCc1cccs1,67.78 µg/mL
Cc1ccc(NC2=NS(=O)(=O)NC(Cc3ccccc3)=C2)cc1C,177 µM
CCOCn1c(C(=O)C=C(C)C)c(CC)c(=O)[nH]c1=O,>100 µM
O=S1(=O)N=C(Nc2ccc(F)c(F)c2)C=C(Cc2ccc3ccccc3c2)N1,156 µM
C=CCOc1cccc(Cc2c(CC)c(=O)n(COCC)c(=O)n2COCC)c1,41 µM
Nc1ccc(Cl)cc1S(=O)(=O)n1cccc1C(=O)OCCO,>200 µM
Cc1ccnc2c1NC(=O)c1cccnc1N2C1CC1,4 µg/mL
S=C(Nc1cccc(Br)c1)NC1CCN(Cc2ccccc2)CC1,14.6 µM
C=CCOc1cccc(Cc2nc(N(C)C)[nH]c(=O)c2CC)c1,>100 µM
CCc1c(Sc2cc(C)cc(C)c2)n(Cc2ccccc2C#N)c(=O)[nH]c1=O,>100 µg/mL
CCOCn1c(Cc2cccc(OCC3CO3)c2)c(CC)c(=O)[nH]c1=O,80 µM
CCOCn1c(C(O)C2=CCCCC2)c(CC)c(=O)[nH]c1=O,>100 µM
Cc1cc(C#N)cc(C)c1Oc1nc(NC2CCN(S(=O)(=O)c3ccc([N+](=O)[O-])cc3)CC2)nc2ccsc12,81.73 µM
O=C(Oc1ccccc1)c1cccn1S(=O)(=O)c1cc(Cl)ccc1[N+](=O)[O-],15.5 µM
O=C1/C(=C\c2ccc(C3=CC=C3)cc2)N(CCc2cccs2)C(=S)N1CCc1cccs1,58.03 µg/mL
C/C=C(\C)C(=O)O[C@H]1[C@H](OC(C)=O)[C@@]23C(CC1(C)C)[C@]1(CCC4[C@@]5(C)CC[C@H](O[C@@H]6O[C@H](CO)[C@@H](O)[C@H](O[C@@H]7O[C@H](CO)[C@H](O)[C@H](O)[C@H]7O[C@@H]7O[C@@H](C)[C@H](O)[C@@H](O)[C@H]7O)[C@H]6O[C@@H]6O[C@H](CO)[C@H](O)[C@H](O)[C@H]6O)C(C)(C)C5CC[C@@]4(C)[C@]1(C)C[C@H]2OC(C)=O)O[C@@H]3O,<150 µg/mL
CN1C(=O)[C@]2(C[C@@H]2c2ccccc2)c2cc(Cl)ccc21,10.24 µg/mL
CC(=O)Cn1c(Oc2cc(C)cc(C)c2)c(C(C)C)c(=O)[nH]c1=O,>100 µg/mL
COc1c(-c2cc(C)n(-c3ccccc3)n2)c(O)c(S(=O)(=O)OC2CCCCC2)c2occc12,210 µM
NC(=O)c1cccn1S(=O)(=O)c1ccccc1N,>200 µM
COc1c(C(=O)/C=C(/C)Nc2ccccc2)c(O)c(S(=O)(=O)Oc2ccc(F)cc2)c2occc12,370 µM
Cc1cc(C)cc(Oc2c(C(C)C)c(=O)[nH]c(=O)n2Cc2cc(F)ccc2F)c1,>100 µg/mL